PubChem BioAssay AID1259414, Drosophila RNAi Screening Center, 2018

Purpose: 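Genome-wide screen for host control of endosymbiont load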 (primary screen)
Cell system: Drosophila JW18 cells infected with Wolbachia
Reagent: long dsRNA against Drosophila genes, 0.25 µg dsRNA per well of a 384-well plate
Time to read-out: 5 days
Treatment: cells persistently infected with Wolbachia before knock-down; no added drug
Measured: 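Imaged fluorescence in situ signal for Wolbachia 23S rRNA per DAPI-counted host cell, given as a robust z-score within each plate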
Reading the numbers: Wolbachia per cell robust z: higher = more Wolbachia per host cell than the plate typical
Active means: 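Hit when robust z is 1.5 or more, or -1.5 or less, in at least two of three replicates; excludes dsRNAs with several or no targets, genes not expressed in JW18 and well A1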
In all, the deposit lists about 24,000 reagents; shown is a random part of those with a known target gene and a result. Over the whole deposit, about 1,210 (5%) got an active call. 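Inactive calls also include excluded dsRNAs with several or no targets, genes unexpressed in JW18, and well A1, regardless of score.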 A number with no mark means an inactive call.

Depletion of CG17237 [DRSC00491] gave: Wolbachia per cell robust z, rep 1 = -2.08; Wolbachia per cell robust z, rep 2 = 0.934; Wolbachia per cell robust z, rep 3 = -0.186.
Depletion of CG14395 [DRSC14852] came out at: Wolbachia per cell robust z, rep 1 = 0.584; Wolbachia per cell robust z, rep 2 = 0.162; Wolbachia per cell robust z, rep 3 = -1.11.
After knock-down of CG12643 [DRSC17849] the results were Wolbachia per cell robust z, rep 1 = 0.238; Wolbachia per cell robust z, rep 2 = -0.397; Wolbachia per cell robust z, rep 3 = 0.577.
For CG12643 [DRSC24898], the entry reads Wolbachia per cell robust z, rep 1 = -0.482; Wolbachia per cell robust z, rep 2 = -0.463; Wolbachia per cell robust z, rep 3 = -0.203.
Against CG7720 [DRSC16306], the entry reads Wolbachia per cell robust z, rep 1 = -0.542; Wolbachia per cell robust z, rep 2 = 0.349; Wolbachia per cell robust z, rep 3 = 0.339.
CG7720 [DRSC16307] gave Wolbachia per cell robust z, rep 1 = 0.691; Wolbachia per cell robust z, rep 2 = 0.0733; Wolbachia per cell robust z, rep 3 = 1.34.
unk (unkempt) [DRSC17093] showed Wolbachia per cell robust z, rep 1 = -0.256; Wolbachia per cell robust z, rep 2 = -0.0283; Wolbachia per cell robust z, rep 3 = -0.553.
After knock-down of unk (unkempt) [DRSC28754], the screen gave Wolbachia per cell robust z, rep 1 = -1.77 (active); Wolbachia per cell robust z, rep 2 = -1.74; Wolbachia per cell robust z, rep 3 = -0.83.
CG15614 [DRSC06567] scored Wolbachia per cell robust z, rep 1 = 0.266; Wolbachia per cell robust z, rep 2 = -0.663; Wolbachia per cell robust z, rep 3 = -1.83.
Knock-down of HnRNP-K (Heterogeneous nuclear ribonucleoprotein K) [DRSC07585] came out at: Wolbachia per cell robust z, rep 1 = 0.499; Wolbachia per cell robust z, rep 2 = 0.765; Wolbachia per cell robust z, rep 3 = 0.376.
HnRNP-K (Heterogeneous nuclear ribonucleoprotein K) [DRSC22734] scored Wolbachia per cell robust z, rep 1 = -2.64; Wolbachia per cell robust z, rep 2 = 0.256; Wolbachia per cell robust z, rep 3 = 0.0483.
HnRNP-K (Heterogeneous nuclear ribonucleoprotein K) [DRSC24070] showed Wolbachia per cell robust z, rep 1 = 1.61; Wolbachia per cell robust z, rep 2 = -1.36; Wolbachia per cell robust z, rep 3 = 0.888.
Silencing of HnRNP-K (Heterogeneous nuclear ribonucleoprotein K) [DRSC40752] came out at: Wolbachia per cell robust z, rep 1 = -0.115; Wolbachia per cell robust z, rep 2 = 0.271; Wolbachia per cell robust z, rep 3 = 0.0502.
Tdh (L-threonine dehydrogenase) [DRSC11788] gave Wolbachia per cell robust z, rep 1 = 1.17; Wolbachia per cell robust z, rep 2 = -0.334; Wolbachia per cell robust z, rep 3 = 0.886.

Entries above whose gene name starts with H or h (4):
HnRNP-K (Heterogeneous nuclear ribonucleoprotein K) [DRSC07585] | Wolbachia per cell robust z, rep 1: 0.499; Wolbachia per cell robust z, rep 2: 0.765; Wolbachia per cell robust z, rep 3: 0.376
HnRNP-K (Heterogeneous nuclear ribonucleoprotein K) [DRSC22734] | Wolbachia per cell robust z, rep 1: -2.64; Wolbachia per cell robust z, rep 2: 0.256; Wolbachia per cell robust z, rep 3: 0.0483
HnRNP-K (Heterogeneous nuclear ribonucleoprotein K) [DRSC24070] | Wolbachia per cell robust z, rep 1: 1.61; Wolbachia per cell robust z, rep 2: -1.36; Wolbachia per cell robust z, rep 3: 0.888
HnRNP-K (Heterogeneous nuclear ribonucleoprotein K) [DRSC40752] | Wolbachia per cell robust z, rep 1: -0.115; Wolbachia per cell robust z, rep 2: 0.271; Wolbachia per cell robust z, rep 3: 0.0502

Additional records:
CG5645 [DRSC10532] gave Wolbachia per cell robust z, rep 1 = 0.781; Wolbachia per cell robust z, rep 2 = 1.44; Wolbachia per cell robust z, rep 3 = 0.138.
After knock-down of ath (athos) [DRSC02788] the results were Wolbachia per cell robust z, rep 1 = -1.42; Wolbachia per cell robust z, rep 2 = -1.05; Wolbachia per cell robust z, rep 3 = -2.8.
Ptpmeg2 (Protein tyrosine phosphatase Meg2) [DRSC18277] gave Wolbachia per cell robust z, rep 1 = -2.19 (active); Wolbachia per cell robust z, rep 2 = 0.0687; Wolbachia per cell robust z, rep 3 = -2.42.
Ptpmeg2 (Protein tyrosine phosphatase Meg2) [DRSC18278] showed Wolbachia per cell robust z, rep 1 = 0.688; Wolbachia per cell robust z, rep 2 = 1.07; Wolbachia per cell robust z, rep 3 = 0.803.
With knock-down of Ptpmeg2 (Protein tyrosine phosphatase Meg2) [DRSC23303] the results were Wolbachia per cell robust z, rep 1 = 0.839; Wolbachia per cell robust z, rep 2 = 0.895; Wolbachia per cell robust z, rep 3 = 1.12.
Against Ptpmeg2 (Protein tyrosine phosphatase Meg2) [DRSC26646] the deposit lists Wolbachia per cell robust z, rep 1 = -3.96; Wolbachia per cell robust z, rep 2 = -1.05; Wolbachia per cell robust z, rep 3 = -1.18.
Ptpmeg2 (Protein tyrosine phosphatase Meg2) [DRSC41570] scored Wolbachia per cell robust z, rep 1 = -1.83; Wolbachia per cell robust z, rep 2 = -0.982; Wolbachia per cell robust z, rep 3 = 0.433.
Silencing of CG32591 [DRSC19063] resulted in: Wolbachia per cell robust z, rep 1 = -0.813; Wolbachia per cell robust z, rep 2 = -1.96; Wolbachia per cell robust z, rep 3 = -1.14.
Hip1 (Huntingtin interacting protein 1) [DRSC09812] showed Wolbachia per cell robust z, rep 1 = -1.22; Wolbachia per cell robust z, rep 2 = 0.417; Wolbachia per cell robust z, rep 3 = -1.66.
CG6695 [DRSC16098] scored Wolbachia per cell robust z, rep 1 = 0.224; Wolbachia per cell robust z, rep 2 = 1.27; Wolbachia per cell robust z, rep 3 = 0.465.
After knock-down of CG6695 [DRSC24623], the screen gave Wolbachia per cell robust z, rep 1 = -0.0529; Wolbachia per cell robust z, rep 2 = -1.17; Wolbachia per cell robust z, rep 3 = -1.06.
